Results on 70 compounds are retold here after PubChem BioAssay AID1053175 (ICCB-Longwood Screening Facility, Harvard Medical School, 2014).

The structures appear in SMILES notation. The list shows a part of the results, in another mix than the full data. The source made the active and inactive calls.

The experiment can be described thus: E. coli growth inhibition, primary screen, OD600 (AID 1053175). Particulars: Escherichia coli growth, OD600, 23 h; hits give low values.
Take `Cc1cccc(NC2(C#N)CCN(Cc3ccccc3)CC2)c1`: the OD600 absorbance was inactive: 0.675. `CSc1ccccc1C(=O)NCC1(N2CCCCC2)CCCCC1`: the OD600 absorbance is inactive: 0.618. In the case of `O=C(NCC1(N2CCCCC2)CCCCC1)c1cccs1` it was inactive: 0.654; in that of `O=C(NCC1(N2CCCCC2)CCCCC1)c1ccc(=O)[nH]c1`, inactive: 0.707; in that of `CC(C)(C)OC(=O)N1CCC(N(C(=O)c2ccccc2)c2ccc(F)cc2)CC1`, inactive: 0.644. With `COc1ccc(C(=O)NCC2(N3CCCCC3)CCCCC2)c(OC)c1OC`, the OD600 absorbance was inactive: 0.707.

Turning to `COc1ccc(C(=O)NCC2(N3CCCCC3)CCCCC2)cc1`, the OD600 absorbance is inactive: 0.662. In the case of `CCOC(=O)N1CCC(Nc2ccc(OC)cc2)CC1` it was inactive: 0.681.

As for `COc1ccc(Cl)cc1C(=O)NCC1(N2CCOCC2)CCCCC1`, the OD600 absorbance is inactive: 0.671. In the case of `O=C(NCC1(N2CCCCC2)CCCCC1)c1ccc(Cl)s1`, the OD600 absorbance was inactive: 0.668.

For the compound `N#CC1(Nc2ccccc2)CCN(Cc2ccccc2)CC1`, the OD600 absorbance was inactive: 0.598. Take `O=C(OC1CN2CCC1CC2)C1c2ccccc2Oc2ccccc21` (stereo not given): the OD600 absorbance is inactive: 0.654.

In the case of `O=C(NCC1(N2CCOCC2)CCCCC1)c1cc2ccccc2o1`, the OD600 absorbance is inactive: 0.702. For `Cc1cc(C)cc(N(C(=O)c2ccccc2)C2CCN(C(=O)OC(C)(C)C)CC2)c1` the value was inactive: 0.69. For `O=C(NCC1(N2CCCCC2)CCCCC1)c1ccc(Cl)nc1` the value was inactive: 0.65. In the case of `CCOC(=O)N1CCC(Nc2ccc(F)cc2)CC1` it was inactive: 0.691; in that of `COc1ccc(NC2CCN(CCc3ccccc3)CC2)c(OC)c1`, inactive: 0.65; in that of `CCCCOc1ccc(C(=O)NCC2(N3CCOCC3)CCCCC2)cc1`, inactive: 0.645. For `O=P1(N(CCCl)CCCl)SCCCS1`, the OD600 absorbance is inactive: 0.65.

On to `O=C(NCC1(N2CCCCC2)CCCCC1)c1ccc(F)cc1`, for which the OD600 absorbance was inactive: 0.717. Regarding `CCOc1ccc(C)cc1CN(CCCl)CCCl`, the OD600 absorbance was inactive: 0.681. For `CCOC(=O)N1CCC(Nc2cccc(C)c2)CC1` the value was inactive: 0.718; for `COc1cc(C(=O)NCC2(N(C)C)CCCCC2)ccc1OC(F)F`, inactive: 0.676. In the case of `O=C(NCC1(N2CCCCC2)CCCCC1)c1cccc([N+](=O)[O-])c1` it was inactive: 0.649; in that of `CSc1ccc(C(=O)NCC2(N3CCOCC3)CCCCC2)cc1`, inactive: 0.651; in that of `N#CC1(Nc2ccccc2)CCN(CCc2ccccc2)CC1`, inactive: 0.696. Take `CCN1CCC(Nc2ccc(Cl)cc2)CC1`: the OD600 absorbance is inactive: 0.712.

Take `O=C(NCC1(N2CCCCC2)CCCCC1)c1ccc(OC(F)F)cc1`: the OD600 absorbance was inactive: 0.7. Regarding `CC(C)c1ccc(C(=O)NCC2(N3CCOCC3)CCCCC2)cc1`, the OD600 absorbance is inactive: 0.674. In the case of `COc1ccc(NC2CCN(C(=O)OC(C)(C)C)CC2)cc1` it was inactive: 0.7. `CN1CCN(CCOC(=O)C(O)(c2ccccc2)c2ccccc2)CC1`: the OD600 absorbance is inactive: 0.668. In the case of `O=C(NCC1(N2CCOCC2)CCCCC1)c1cc(=O)[nH]c2ccccc12` it was inactive: 0.695; in that of `COc1cc(C(=O)NCC2(N3CCCCC3)CCCCC2)ccc1OC(F)F`, inactive: 0.67.

For `O=C(NCC1(N2CCCCC2)CCCCC1)c1cccc(C(F)(F)F)c1`, the OD600 absorbance was inactive: 0.682. For the compound `O=C(NCC1(N2CCOCC2)CCCCC1)c1cc(F)c(F)cc1Cl`, the OD600 absorbance was inactive: 0.708. For `COc1cc(OC)c(C(=O)NCC2(N(C)C)CCCCC2)cc1OC` the value was inactive: 0.666; for `CN(C)c1cccc(C(=O)NCC2(N3CCCCC3)CCCCC2)c1`, inactive: 0.728; for `COc1ccc(CN(CCCl)CCCl)cc1Cl`, inactive: 0.689. In the case of `CC(C)c1ccc(NC2CCN(C(=O)OC(C)(C)C)CC2)cc1` it was inactive: 0.691; in that of `CCCOc1ccc(C(=O)NCC2(N(C)C)CCCCC2)cc1OC`, inactive: 0.697; in that of `O=C(NCC1(N2CCCCC2)CCCCC1)c1cncc(Br)c1`, inactive: 0.674. For `COc1ccc(C(=O)NCC2(N3CCOCC3)CCCCC2)cc1OC` the value was inactive: 0.668; for `O=C(NCC1(N2CCOCC2)CCCCC1)c1cc(Br)ccc1Cl`, inactive: 0.689; for `COc1cc(C(=O)NCC2(N3CCOCC3)CCCCC2)cc(OC)c1C`, inactive: 0.676.

In the case of `CCc1cc(C(=O)NCC2(N3CCCCC3)CCCCC2)sc1C`, the OD600 absorbance is inactive: 0.674. For `O=C(OC1CN2CCC1CC2)C1c2ccccc2C=Cc2ccccc21` (stereo not given) the value was inactive: 0.738; for `CCOC(=O)N1CCC(Nc2ccc(C)cc2)CC1`, inactive: 0.618.

As for `CC(C)(C)OC(=O)N1CCC(N(C(=O)c2ccccc2)c2ccc(Cl)cc2)CC1`, the OD600 absorbance is inactive: 0.677. For `N#Cc1ccc(C(=O)NCC2(N3CCCCC3)CCCCC2)cc1` the value was inactive: 0.71; for `CCCN1CCC(Nc2cc(OC)cc(OC)c2)CC1`, inactive: 0.676. For `c1ccc(CN2CCC(Nc3ccccc3)CC2)cc1` the value was inactive: 0.746. For `CN(C)C1(CNC(=O)c2cccc(C#N)c2)CCCCC1` the value was inactive: 0.667. For the compound `Cc1ccc(NC2(C#N)CCN(Cc3ccccc3)CC2)cc1`, the OD600 absorbance is inactive: 0.643. In the case of `Fc1ccccc1NC1CCN(Cc2ccccc2)CC1` it was inactive: 0.66; in that of `Cc1ccc(C(=O)NCC2(N3CCCCC3)CCCCC2)o1`, inactive: 0.634; in that of `COc1cc(OC)cc(C(=O)NCC2(N3CCCCC3)CCCCC2)c1`, inactive: 0.683. In the case of `CC(=O)N(c1ccccc1)C1CCNCC1` it was inactive: 0.642; in that of `CN(C)c1ccc(C(=O)NCC2(N3CCCCC3)CCCCC2)cc1`, inactive: 0.642. Take `Cn1c(=O)[nH]cc(N(CCCl)CCCl)c1=O`: the OD600 absorbance was inactive: 0.713. For the compound `O=C(NCC1(N2CCCCC2)CCCCC1)c1ccco1`, the OD600 absorbance was inactive: 0.689.

For `CCN1CCC(Nc2cccc(F)c2)CC1`, the OD600 absorbance was inactive: 0.712. For `Cc1ccccc1NC1(C#N)CCN(Cc2ccccc2)CC1` the value was inactive: 0.666; for `CCCOc1ccc(C(=O)NCC2(N(C)C)CCCCC2)cc1`, inactive: 0.67. For `O=C(O)C1(Nc2ccccc2)CCN(Cc2ccccc2)CC1` the value was inactive: 0.66. On to `CC(C)(C)OC(=O)N1CCC(Nc2ccccc2)CC1`, for which the OD600 absorbance is inactive: 0.668. In the case of `CN1CCC(Nc2ccc(F)c(Cl)c2)CC1` it was inactive: 0.616; in that of `CCOc1ncccc1C(=O)NCC1(N2CCOCC2)CCCCC1`, inactive: 0.622. Regarding `CN1CCC(Nc2ccc(Cl)cc2)CC1`, the OD600 absorbance was inactive: 0.661. In the case of `COc1cccc(C(=O)N(c2cc(C)cc(C)c2)C2CCN(C(=O)OC(C)(C)C)CC2)c1` it was inactive: 0.678; in that of `COc1cc(OC)cc(C(=O)NCC2(N3CCOCC3)CCCCC2)c1`, inactive: 0.673.
